Experimental data published in US9073966B2, “Inhibition of sweat malodor” (Firmenich SA, priority 2005, dated 2015).

Tested on: St. haemolyticus, C. xerosis and St. epidermidis
Assay: Bioconversion of synthesized precursors into (R/S)-3-methyl-3-sulfanyl-hexane-1-ol by bacterial strains
Assay type: cell-based
Conditions: bacteria incubated with precursor at 35-37° C., up to 18 hours; GC-AED

CCCC(C)(CCO)SC[C@H](N)C(=O)NCC(=O)O (stereo partly drawn) [Compound 9, (2R)—S-[1-(2-hydroxyethyl)-1-methylbutyl]-Cys-Gly]
conversion of precursor into malodorous compound 1 (chemical yield of 1): always a better chemical yield compared to 11; also recorded: more efficiently converted into the malodorous compound 1; also recorded: efficiently converted by all strains

“Also recorded” adds a separate entry of the source.
